Data as given in publication PMC3898920 (PLoS ONE, 2014).

Test: Steady-state plasma pharmacokinetics of rifabutin and 25-O-desacetylrifabutin, alone and with lopinavir/ritonavir
Conditions: for Cave (AUCτ/τ) / Cmax / C0 / AUCτ: median (range); for C0: pre-dose
[1] = rifabutin 150 mg OD plus LPV/r vs rifabutin 300 mg OD alone
[2] = rifabutin 150 mg OD with lopinavir/ritonavir
[3] = rifabutin 150 mg TPW plus LPV/r vs rifabutin 300 mg OD alone
[4] = rifabutin 150 mg TPW with lopinavir/ritonavir

Substance: 25-O-desacetylrifabutin [25-O desacetyl rifabutin]
- AUCτ geometric mean ratio (90% CI) (rifabutin 150 mg OD plus LPV/r (AUC24h) vs rifabutin 300 mg OD alone): 5.13 (3.94; 6.69)
- C0 geometric mean ratio (90% CI) [1]: 11.49 (8.21;16.09)
- Cave geometric mean ratio (90% CI) [1]: 5.13 (3.94; 6.69)
- Cmax geometric mean ratio (90% CI) [1]: 2.58 (2.04;3.25)
- Cave (AUCτ/τ) [2]: 79 (18–159) ng/mL
- Cmax [2]: 216 (94 – 535) ng/mL
- C0 [2]: 137 (48 – 334) ng/mL
- AUCτ (rifabutin 150 mg OD with lopinavir/ritonavir, τ 24 h): 4127 (1769–8616) ng.h/mL
- AUCτ geometric mean ratio (90% CI) (rifabutin 150 mg TPW plus LPV/r (AUC48h) vs rifabutin 300 mg OD alone): 4.74 (3.59; 6.25)
- Cave geometric mean ratio (90% CI) [3]: 2.36 (1.79;3.12)
- Cmax geometric mean ratio (90% CI) [3]: 1.57 (1.21;2.03)
- Cmax [4]: 142 (31 – 308) ng/mL
- C0 [4]: 54 (14 – 118) ng/mL
- AUCτ (rifabutin 150 mg TPW with lopinavir/ritonavir, τ 48 h): 3807 (872–7628) ng.h/mL
- Cave (AUCτ/τ) (rifabutin 300 mg OD alone): 29 (10–427) ng/mL
- Cmax (rifabutin 300 mg OD alone, plasma, steady state): 80 (25 - 595) ng/mL
- C0 (rifabutin 300 mg OD alone): 10 (0 – 595) ng/mL
- AUCτ (rifabutin 300 mg OD alone, τ 24 h): 697 (245–10250) ng.h/mL
